From ChEMBL document CHEMBL3988442, “University of Dundee, Small-Polar-MMV Screening Library” (2021).

Mtb glucose medium: 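Whole-cell growth test on Mycobacterium tuberculosis, read after 3 days in glucose-containing 7H9 medium; the read-out is not stated. Compounds at 500 µM. The record gives no direction; compounds that gave an IC50 in retests scored well above the rest, so higher reads as more growth inhibition. Size under these conditions: about 18,000 compounds, about 1,400 of them at 50% or above in at least one test.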
Mtb cholesterol medium: 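Growth of Mycobacterium tuberculosis over 4 days (cholesterol / DPPC medium with tyloxapol); the read-out is not stated. Concentration: 500 µM. The record gives no direction; compounds that gave an IC50 in retests scored well above the rest, so higher reads as more growth inhibition. Of about 18,000 compounds tested this way, about 900 (5%) reached 50% or more in at least one test.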

Each number is a percent effect as filed.
The record does not define 0% and 100%; most values in the screen are far below 50% and negative numbers occur (in some assays of this library far below -100).
This is part of a subset picked to be rich in strong results.
A dash means the value is not listed here; it may have been measured.

{"compound": "O=C(CSc1ncnn1-c1ccccc1)N1CCCC1", "Mtb glucose medium": 59.16, "Mtb cholesterol medium": 44.33}
{"compound": "COc1ccc(C(=O)N(C)CCn2cccn2)cc1", "Mtb glucose medium": 76.82}
{"compound": "O=S1(=O)CCC(n2cccn2)C1", "stereo": "configuration not stated", "Mtb glucose medium": 7.097}
{"compound": "CN(Cc1ccccc1)C(CN)C1CC1", "stereo": "configuration not stated", "Mtb cholesterol medium": 31.9}
{"compound": "Cc1n[nH]cc1CNc1cc2c(cc1F)NC(=O)CC2", "Mtb glucose medium": 12.44}
{"compound": "Cc1ccc(CS(=O)(=O)c2ncnn2C)cc1", "Mtb glucose medium": 38.28}
{"compound": "Cc1ccc(CN)c(OCC2CCCO2)c1", "stereo": "configuration not stated", "Mtb glucose medium": -1.637}
{"compound": "Cc1ccc(C(=O)NCc2c[nH]nn2)c(F)c1", "Mtb glucose medium": 30.73}
{"compound": "Cc1cccc(OCCNC(=O)CN(C)CC(N)=O)c1", "Mtb glucose medium": 20.56, "Mtb cholesterol medium": 1.316}
{"compound": "NCCc1cc(O)cc(O)c1", "Mtb glucose medium": 13.67}
{"compound": "NCc1cnn(-c2ccc(Br)cc2)c1", "Mtb glucose medium": 76.3, "Mtb cholesterol medium": 55.45}
{"compound": "CCCNC(=O)c1nnn(-c2ccccc2OC)c1C", "Mtb glucose medium": 78.8, "Mtb cholesterol medium": 68.11}
{"compound": "CC(C(=O)NCCc1ccc(O)cc1)n1cccn1", "stereo": "configuration not stated", "Mtb glucose medium": 10.38}
{"compound": "CN(C)C1CCN(C(=O)CC2CCNCC2)CC1", "Mtb glucose medium": 5.547}
{"compound": "CCNC(=O)c1cc2ccccc2n1C", "Mtb glucose medium": 39.45, "Mtb cholesterol medium": 24.56}
{"compound": "CCOC(CN)CN", "Mtb glucose medium": -18.38}
{"compound": "Cc1cnn(CCNC(=O)CCCN2CCCCC2)c1", "Mtb glucose medium": 5.924}
{"compound": "CCC(CC)(NC(=O)c1noc2c1CCCC2)C(N)=O", "Mtb glucose medium": 16.81, "Mtb cholesterol medium": 15.65}
{"compound": "O=C(NCc1cn2cc(Br)ccc2n1)C1CC1", "Mtb glucose medium": -5.358}
{"compound": "COc1ccc(-c2nc(CN)cs2)cc1", "Mtb glucose medium": 29.1}
{"compound": "CC(NC(=O)CSc1nnnn1C1CC1)c1cccs1", "stereo": "configuration not stated", "Mtb glucose medium": 64.71, "Mtb cholesterol medium": 48.68}
{"compound": "Cc1cc(C(=O)N2CCN(CC(C)O)CC2)on1", "stereo": "configuration not stated", "Mtb cholesterol medium": -12.55}
{"compound": "CO[C@@H]1C[C@@H](CO)N(C(=O)OC(C)(C)C)C1", "Mtb cholesterol medium": 22.12}
{"compound": "CNc1cc(-c2cccc(OC)c2OC)nc(N)n1", "Mtb cholesterol medium": -5.72}
{"compound": "CNC(=O)c1cccc(NC(C)C(=O)NCC(C)C)c1", "stereo": "configuration not stated", "Mtb glucose medium": 14.07}
{"compound": "Cc1n[nH]c(SCC(=O)NCCCc2ncc[nH]2)n1", "Mtb glucose medium": 14.1}

Repeated from the top, 3 entries:

compound	Mtb glucose medium	Mtb cholesterol medium
O=C(CSc1ncnn1-c1ccccc1)N1CCCC1	59.16	44.33
COc1ccc(C(=O)N(C)CCn2cccn2)cc1	76.82	-
O=S1(=O)CCC(n2cccn2)C1 (configuration not stated)	7.097	-